## Kdimer by position in the HIV-1 leader RNA

Source: Ye et al. 2022 (doi:10.1038/s41594-022-00746-2), supplementary data.

Sequence of the HIV-1 NL4-3 5' RNA, positions 1 to 437, as numbered in the source:
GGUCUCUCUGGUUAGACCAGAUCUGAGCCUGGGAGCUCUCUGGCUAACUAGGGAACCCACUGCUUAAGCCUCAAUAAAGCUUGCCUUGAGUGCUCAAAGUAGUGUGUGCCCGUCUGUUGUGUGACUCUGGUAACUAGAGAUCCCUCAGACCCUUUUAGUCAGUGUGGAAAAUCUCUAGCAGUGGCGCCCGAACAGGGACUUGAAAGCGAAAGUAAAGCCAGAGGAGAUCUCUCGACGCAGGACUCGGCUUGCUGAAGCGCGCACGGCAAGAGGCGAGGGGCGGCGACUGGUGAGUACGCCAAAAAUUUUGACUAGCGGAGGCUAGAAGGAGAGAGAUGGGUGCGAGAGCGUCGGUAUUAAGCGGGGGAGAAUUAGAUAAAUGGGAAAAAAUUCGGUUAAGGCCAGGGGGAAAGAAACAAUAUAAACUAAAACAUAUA

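Randomly mutated transcripts starting with one, two or three G (1G, 2G, 3G), capped or uncapped, were folded for 30 min at 37 °C. High salt was 300 mM KCl and 5 mM MgCl2, low salt 40 mM KCl and 0.1 mM MgCl2; monomer and dimer were parted on a native gel. Mutation frequencies in the two bands give Kdimer.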

Scale: median log2 Kdimer over the changes at a position; positive = changes inhibit dimerization, negative = changes enhance it.
One numbering serves 1G, 2G and 3G.
A position is written with its base.

position	domain	2G capped high-salt	2G capped low-salt	2G uncapped high-salt	2G uncapped low-salt
C185	PBS	0.04	-0.30	-0.10	-0.37
G186	PBS	-0.17	-0.48	0.01	-0.37
C187	PBS	-0.02	-0.17	-0.04	-0.24
C188	PBS	0.13	0.05	0.03	0.16
C189	PBS	0.10	-0.03	0.00	0.09
G190	PBS	0.16	0.25	0.16	0.37
A191	PBS	-0.13	-0.13	0.05	-0.06
A192	PBS	-0.04	0.11	0.12	0.06
C193	PBS	0.23	-0.29	-0.01	-0.29
A194	PBS	0.07	0.36	0.20	0.39
G195	PBS	0.63	0.38	0.60	0.37
G196	PBS	0.50	0.60	0.61	0.45
G197	PBS	0.30	0.51	0.47	0.55
A198	PBS	0.20	-0.35	0.17	-0.29
C199	PBS	-0.19	-0.08	0.04	-0.13
U200	PBS	0.19	0.08	0.09	0.11
U201	PBS	0.13	-0.09	0.07	0.15
G202	PBS	-0.24	-0.27	-0.19	-0.37
A203	PBS	0.53	0.75	0.59	0.72
A204	PBS	0.25	-0.02	0.18	-0.07
A205	PBS	0.39	-0.06	0.17	-0.12
G206	PBS	-0.62	-0.79	-0.38	-0.81
C207	PBS	-0.28	-0.56	-0.06	-0.58
G208	PBS	-0.09	-0.32	-0.02	-0.28
A209	PBS	1.17	0.82	1.15	0.86
A210	PBS	0.10	-0.14	0.12	-0.18
A211	PBS	-0.13	-0.49	-0.35	-0.50
G212	PBS	-0.56	-0.82	-0.46	-0.83
U213	PBS	-0.35	-0.45	-0.23	-0.22
A214	PBS	0.09	0.00	0.06	0.00
A215	PBS	-0.11	-0.27	0.00	-0.21
A216	PBS	-0.31	-0.62	-0.12	-0.58
G217	antiPAS	-0.82	-1.19	-0.64	-1.08
C218	antiPAS	-0.61	-0.88	-0.40	-0.93
C219	antiPAS	0.23	-0.30	0.51	0.55
A220	antiPAS	0.17	-0.19	0.13	-0.09
G221	antiPAS	-0.13	0.08	-0.15	0.37
A222	antiPAS	-0.10	0.40	0.21	0.47
G223	antiPAS	0.08	0.45	0.13	0.54
G224	none	0.18	-0.29	-0.25	-0.45
A225	none	-0.06	-0.21	0.00	-0.11
G226	none	-0.33	-0.65	-0.24	-0.60
A227	CU	1.49	1.12	1.18	1.25
U228	CU	0.04	0.34	0.13	0.19
C229	CU	0.41	0.25	0.36	0.32
U230	CU	0.78	0.67	0.66	0.62
C231	CU	0.31	0.31	0.32	0.05
U232	CU	0.29	0.95	0.32	1.04